# Fold change is the IC50 on the isolate divided by the IC50 on a reference virus; 1 = unchanged, higher = more resistant. Changes are given against the subtype B consensus. No active / inactive call. The values were gathered from many studies (numbered anew) with different assays, which the source does not name. Most viruses are clinical isolates; some are laboratory strains or clones with known resistance changes. Isolates with mixed residues are left out; stretches that were not sequenced show no change. Round top values that many isolates share are read here as limits; other very high values and 0.1 may be limits too. For part of these data: The protease changes I3V and N37S, insertions and deletions cannot be read from the source.
# How the values were obtained:
# nevirapine = compound: Cc1ccnc2c1NC(=O)c1cccnc1N2C1CC1 [nevirapine]; test: fold change of IC50 against reference virus; higher = more resistant
# Procedure: (§1)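 Cell-culture drug susceptibility tests of virus bearing the reverse transcriptase of each isolate, gathered from many studies.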
# zidovudine = compound: Cc1cn([C@H]2C[C@H](N=[N+]=[N-])[C@@H](CO)O2)c(=O)[nH]c1=O [zidovudine]; test: as above
# Procedure: as §1
# indinavir = compound: CC(C)(C)NC(=O)[C@@H]1CN(Cc2cccnc2)CCN1C[C@@H](O)C[C@@H](Cc1ccccc1)C(=O)N[C@H]1c2ccccc2C[C@H]1O [indinavir]; test: fold change of IC50 against reference virus; higher = more resistant; Cell-culture drug susceptibility tests of virus bearing the protease of each isolate, gathered from many studies.
# saquinavir = compound: CC(C)(C)NC(=O)[C@@H]1C[C@@H]2CCCC[C@@H]2CN1C[C@@H](O)[C@H](Cc1ccccc1)NC(=O)[C@H](CC(N)=O)NC(=O)c1ccc2ccccc2n1 [saquinavir]; test: as above
# ritonavir = compound: CC(C)c1nc(CN(C)C(=O)N[C@H](C(=O)N[C@@H](Cc2ccccc2)C[C@H](O)[C@H](Cc2ccccc2)NC(=O)OCc2cncs2)C(C)C)cs1 [ritonavir]; test: as above
# nelfinavir = compound: Cc1c(O)cccc1C(=O)N[C@@H](CSc1ccccc1)[C@H](O)CN1C[C@H]2CCCC[C@H]2C[C@H]1C(=O)NC(C)(C)C [nelfinavir]; test: as above
# lopinavir = compound: Cc1cccc(C)c1OCC(=O)N[C@@H](Cc1ccccc1)[C@@H](O)C[C@H](Cc1ccccc1)NC(=O)[C@H](C(C)C)N1CCCNC1=O [lopinavir]; test: as above
Test System,fold change of IC50 against reference virus (nevirapine),fold change of IC50 against reference virus (zidovudine),fold change of IC50 against reference virus (indinavir),fold change of IC50 against reference virus (saquinavir),fold change of IC50 against reference virus (ritonavir),fold change of IC50 against reference virus (nelfinavir),fold change of IC50 against reference virus (lopinavir)
"HIV-1 isolate 6 (reverse transcriptase changes: K102Q S162C Y181C K277R, study 16)",8,,,,,,
"HIV-1 isolate 87 (reverse transcriptase changes: D67N K70R K102Q S162C Y181C T215Y K219Q K277R I293V R358K V435I S468P K550G, study 16)",8,4,,,,,
"HIV-1 isolate 90 (reverse transcriptase changes: K70R L100I K102Q S162C K277R I293V R358K V435I S468P K550G, study 16)",4,1,,,,,
"HIV-1 isolate 91 (reverse transcriptase changes: K103R V179D Y181C T200A Q207E V245M, study 26)",30000,1,,,,,
"HIV-1 isolate 114 (reverse transcriptase changes: K70R K101E K102Q S162C K277R I293V R358K V435I S468P K550G, study 16)",8,4,,,,,
"HIV-1 isolate 115 (reverse transcriptase changes: M41L K101E K102Q S162C T215Y K277R I293V R358K V435I S468P K550G, study 16)",4,4000,,,,,
"HIV-1 isolate 202 (reverse transcriptase changes: T69G K102Q K103N S162C K277R, study 98)",40,1.2,,,,,
"HIV-1 isolate 204 (reverse transcriptase changes: K70R K102Q K103N S162C K277R I293V R358K V435I S468P K550G, study 16)",8,4,,,,,
"HIV-1 isolate 390 (reverse transcriptase changes: A98G K102Q S162C K277R, study 16)",2,,,,,,
"HIV-1 isolate 481 (reverse transcriptase changes: K122E Y181C F214L A272P K277R M357T A376T A400T N447S D460N S468T S519N, study 125)",100,,,,,,
"HIV-1 isolate 513 (reverse transcriptase changes: K102Q S162C V179E K277R, study 16)",1,,,,,,
"HIV-1 isolate 599 (reverse transcriptase changes: M41L K102Q S162C T215Y K277R I293V R358K V435I S468P K550G, study 16)",1,,,,,,
"HIV-1 isolate 734 (reverse transcriptase changes: K102Q S162C Y181C K277R I293V R358K V435I S468P K550G, study 128)",200,,,,,,
"HIV-1 isolate 782 (reverse transcriptase changes: K122E F214L A272P K277R M357T A376T A400T N447S D460N S468T S519N, study 96)",1,,,,,,
"HIV-1 isolate 798 (reverse transcriptase changes: K102Q S162C K277R, study 16)",1,,,,,,
"HIV-1 isolate 821 (reverse transcriptase changes: K102Q S162C Y188C K277R, study 16)",8,,,,,,
"HIV-1 isolate 1067 (reverse transcriptase changes: K102Q S162C V179D K277R, study 16)",1,,,,,,
"HIV-1 isolate 1069 (reverse transcriptase changes: L100I K102Q S162C K277R, study 16)",1,,,,,,

Test System,fold change of IC50 against reference virus (nevirapine),fold change of IC50 against reference virus (zidovudine),fold change of IC50 against reference virus (indinavir),fold change of IC50 against reference virus (saquinavir),fold change of IC50 against reference virus (ritonavir),fold change of IC50 against reference virus (nelfinavir),fold change of IC50 against reference virus (lopinavir)
"HIV-1 isolate 1121 (reverse transcriptase changes: K102Q K103N S162C K277R, study 16)",8,,,,,,
"HIV-1 isolate 1289 (reverse transcriptase changes: K102Q V106A S162C K277R, study 16)",8,,,,,,
"HIV-1 isolate 1439 (protease changes: L10F V32I E35D M36I M46L A71V V82A, study 8)",,,10.2,1.5,12.1,7.4,5.2
"HIV-1 isolate 1448 (protease changes: T12S K14R I15V L19I M36I R41K L63S H69K V82I L89M I93L, study 114)",,,0.2,0.4,0.3,0.3,0.3
"HIV-1 isolate 1452 (protease changes: L10I I13V K14R K20R L33F E35D M36I R41K F53L I54V D60E Q61G I62V L63P A71V G73S V82A L90M, study 109)",,,59,208,158,153,144
"HIV-1 isolate 1454 (protease changes: L10I V32I L33M E34Q N37H F53L I54V Q61E L63E I64V E65D A71V V82S L90M, study 65)",,,25.2,33.2,190,53.2,25.2
"HIV-1 isolate 1457 (protease changes: T12S L19I L63P V77I I93L, study 15)",,,1.2,0.8,1.1,1.9,0.7
"HIV-1 isolate 1471 (protease changes: L10I I15V L24I N37D K45V I54V L63P V82A L89M, study 116)",,,40,5.9,108,31,41
"HIV-1 isolate 1475 (protease changes: L10F M46I I50V, study 30)",,,1.6,1.3,5.2,2.9,19
"HIV-1 isolate 1482 (reverse transcriptase changes: K102Q V108I S162C K277R, study 16)",1,,,,,,
"HIV-1 isolate 1492 (protease changes: L10I I15V G16E K20R E35D M36I R41K I54V R57K Q61N I62V L63H I64M K70R L89M L90M Q92K, study 8)",,,1.8,1.8,5,2.3,2.8
"HIV-1 isolate 1503 (protease changes: L10I K20R L24I L33I E35D M36I N37D R41K M46L G48S F53L I54V K55R R57K L63P I64V V82A, study 109)",,,18,153,214,78,108
"HIV-1 isolate 1551 (reverse transcriptase changes: K101E K102Q S162C K277R, study 16)",8,,,,,,
"HIV-1 isolate 1560 (protease changes: N37E F53I D60E I64V V82A, study 7)",,,1.6,0.7,7.7,1.8,1.7
"HIV-1 isolate 1563 (protease changes: I15V I62V L63P I72V, study 15)",,,1.5,1,1.8,1.8,1.5
"HIV-1 isolate 1586 (protease changes: T12S L63P H69Q, study 109)",,,0.8,0.6,1,1.3,1
"HIV-1 isolate 1593 (protease changes: L10I T12P I13V I15V K20I E35N M36I R41K I64M H69K L89M, study 114)",,,0.6,0.8,0.8,1.1,0.8
"HIV-1 isolate 1596 (protease changes: I15V L63P V82L L90M, study 15)",,,1.4,1.2,9,2.6,1.2
